Measured values as given in article PMC4726272.
Construct, isoform or probe ends are uncertain for at least one entry. A negative result means that nothing was seen under these conditions.

Tested on: OmpR-6His + RcsB-6His
Experiment: EMSA
Conditions: both proteins together, 10 mM Tris pH 7.5, 50 mM NaCl, 0.5 mM DTT, 1 mM MgCl2, 2.5% glycerol, 20 min at room temperature, 50 ng DNA in 20 ul, 6% acrylamide-TBE gel, recombinant protein, protein details: His-tag (pET100/D-Topo),6xHis, label: none (ethidium bromide staining), probe letters rebuilt from the primers and the genome

| Sequence | binding result | binding result (minimal amounts 100 ng OmpR and 200 ng RcsB in 20 ul) |
| --- | --- | --- |
| AACTGACCAGCATGGGATTCTTCGCCACCAGTACTTTTTTTGTGTTATCCGGCTTTCTGCTGACGCACGTTTATCTGCGTGACGGCCAGTTGCGGGAACCCGCCCGACACTTTTTAGCCAAGCGGTTGTTTAACCTCTACCCGATTCATATCATCGGTCTGGTGTCATCCATCGTCGTGGTCAGCCTGATGCACTGGCTGGCGATTCCGCCGGAAGGTCAGGTCGCTAGCGCCCGCTTCGTGATTTACGACAGCAACGACCCCAGCGTCGCGCCGGAAACATTACGCCACTACATGGATAACGCTGAACTGGCTTTTAACGGCTTGTTGCAATTACTGATGTTGCAGGCGTGGAACCCCTACTTTCTGACCTTCAACGCGCCGTTGTGGTCGGTGTCGACATTGTTCTTCTTCTATTTGCTGTTCCCACTGCTGGCGCCGCGGCTGTTGGGCAGTCGTCACCCGCGCCTGTGGTTGATGGCGATGTTCGTGCTGTATTTACTGCCGCCGATATGGGTGATCTGGCATCAATTATATGGCGCGCCATACACCGGCCTGCTACAACGCAACCCC (double strand) [opgC mid-coding control fragment] | no binding |  |
| CACATCTAGACGATGGTTATCTGCTCAAGGATATGGAACCGGAAGACCTGCTGGTGGCGCTGCATCAGGCCGCCGCCGGCAAAATGGTGCTCAGCGATGCCCTGACGCCGGTTCTGGCGGCCAGCCTGCGGGAAACGCGTAGCAGCGATACGCGGGATATCCAGCAACTGACCCCGCGGGAAAAAGATATCCTGAAGCTGATCGCCCAGGGTCTGCCCAACAAGGTCATCGCCCGTAAGCTGACGATTACCGAAAGCACGGTGAAAGTACACGTCAAACATCTGCTGAAAAAAATGAAATTGCGCTCCCGGGTGGAAGCCGCAGTCTGGGTGGTGCAAGAGAAGATTTTTTAACCGGCGGCGGCCGGACGCCGCCGGCCAGCACCGCCACGCCGATGTCGCTCTTACTTTTTGAGGCCAAAAATTACAGGAAAATACACCCACCTACACTTCTATACGTTTATTTGCGTTACGGCTGATAAAGTAACGCCCGTTCATGGTTTTTAGTACTTTATCGCCATTTTCCTAGATATTTCCCCATATTCCTTTCCTAGACTCACCTTGTTCGGCGTTTCATTGCGCTTTCGCCAGGCTTAACCGGAGGAAAAAGAGAATGAAAGTCAGAGAACGATATATTGGACTGGAATGGCTCCGGTTTCTGCTTGGATGAGCATGCTGTG (double strand) [opgC promoter region] |  | binds |
